{
  "source": "paper PMC8284461",
  "about": "“Piperidine-4-Carboxamides Target DNA Gyrase in Mycobacterium abscessus” (Antimicrobial Agents and Chemotherapy, 2021)",
  "key": {"[1]": {"test_system": "M. abscessus subsp. abscessus ATCC 19977 844-TFM^r-3 (GyrA V46F)", "assay": "MIC, resistant mutant", "assay_type": "cell-based, Mycobacterium abscessus", "conditions": "Mycobacteroides abscessus, ATCC19977"}, "[2]": {"test_system": "M. abscessus subsp. abscessus ATCC 19977 844-TFM^r-1 (GyrA D91N)", "assay": "MIC, resistant mutant", "assay_type": "cell-based, Mycobacterium abscessus", "conditions": "Mycobacteroides abscessus, ATCC19977"}, "[3]": {"test_system": "M. abscessus subsp. abscessus ATCC 19977 844-TFM^r-5 (GyrB V496L)", "assay": "MIC, resistant mutant", "assay_type": "cell-based, Mycobacterium abscessus", "conditions": "Mycobacteroides abscessus, ATCC19977"}, "[4]": {"test_system": "M. abscessus subsp. abscessus ATCC 19977 844-TFM^r-2 (GyrA D91G)", "assay": "MIC, resistant mutant", "assay_type": "cell-based, Mycobacterium abscessus", "conditions": "Mycobacteroides abscessus, ATCC19977"}, "[5]": {"test_system": "M. abscessus subsp. abscessus ATCC 19977 844-TFM^r-1 (GyrA D91N) complemented with wild-type gyrAB", "assay": "Complementation of P4C-resistant strain with wild-type gyrAB", "conditions": "treated at 1× MIC for 2 days, OD600"}},
  "data": [
    {"smiles": "CC[C@H]1OC(=O)[C@H](C)[C@@H](O[C@H]2C[C@@](C)(OC)[C@@H](O)[C@H](C)O2)[C@H](C)[C@@H](O[C@@H]2O[C@H](C)C[C@H](N(C)C)[C@H]2O)[C@](C)(OC)C[C@@H](C)C(=O)[C@H](C)[C@@H](O)[C@]1(C)O", "note": "[CLR, clarithromycin]", "values": [
      {"measurement": "MIC", "setting": "[1]", "value": 2, "unit": "µM"},
      {"measurement": "MIC", "setting": "[2]", "value": 2, "unit": "µM"},
      {"measurement": "MIC", "setting": "[3]", "value": 2, "unit": "µM"},
      {"measurement": "MIC", "setting": "[4]", "value": 1, "unit": "µM"}
    ]},
    {"smiles": "COc1ccc2nccc(NC(=O)C3CCN(CCc4ccc(Cl)cc4)CC3)c2n1", "note": "[compound 844]", "values": [
      {"measurement": "MIC", "setting": "[1]", "value": 40, "unit": "µM"},
      {"measurement": "effect of wild-type gyrAB complementation on sensitivity", "setting": "[5]", "value": "partially restored sensitivity"},
      {"measurement": "MIC", "setting": "[2]", "value": "> 100", "unit": "µM"},
      {"measurement": "MIC", "setting": "[3]", "value": 25, "unit": "µM"},
      {"measurement": "MIC", "setting": "[4]", "value": "> 100", "unit": "µM"}
    ]},
    {"smiles": "COc1ccc2nccc(NC(=O)C3CCN(CCc4ccc(C(F)(F)F)cc4)CC3)c2n1", "note": "[844-TFM]", "values": [
      {"measurement": "MIC", "setting": "[1]", "value": 20, "unit": "µM"},
      {"measurement": "effect of wild-type gyrAB complementation on sensitivity", "setting": "[5]", "value": "partially restored sensitivity"},
      {"measurement": "MIC", "setting": "[2]", "value": "> 100", "unit": "µM"},
      {"measurement": "MIC", "setting": "[3]", "value": 5, "unit": "µM"},
      {"measurement": "MIC", "setting": "[4]", "value": "> 100", "unit": "µM"}
    ]},
    {"smiles": "COc1c(N2C[C@@H]3CCCN[C@@H]3C2)c(F)cc2c(=O)c(C(=O)O)cn(C3CC3)c12", "note": "[MXF, moxifloxacin]", "values": [
      {"measurement": "MIC", "setting": "[1]", "value": 1.5, "unit": "µM"},
      {"measurement": "MIC", "setting": "[2]", "value": 20, "unit": "µM"},
      {"measurement": "MIC", "setting": "[3]", "value": 2, "unit": "µM"},
      {"measurement": "MIC", "setting": "[4]", "value": 6, "unit": "µM"}
    ]},
    {"smiles": "CCNC(=O)Nc1nc2cc(-c3cnc(C(C)(C)O)nc3)c(F)c([C@H]3CCCO3)c2[nH]1", "note": "[SPR719]", "values": [
      {"measurement": "MIC", "setting": "[1]", "value": 0.05, "unit": "µM"},
      {"measurement": "MIC", "setting": "[2]", "value": 0.06, "unit": "µM"},
      {"measurement": "MIC", "setting": "[3]", "value": 0.02, "unit": "µM"},
      {"measurement": "MIC", "setting": "[4]", "value": 0.04, "unit": "µM"}
    ]}
  ]
}
